Test results as given in patent US20260007717A1 (priority 2022, published 2026).
Non-standard residues stand in square brackets, D forms with d. Residues, ends and D or L forms follow the SMILES beside them. Aib = CC(C)(N)C(=O)O

What was measured:
[1] = system: A. baumannii YQ4; test: SEM and TEM cell morphology; settings: 1×MIC, 30 min, PBS
[2] = system: A. baumannii YQ4; test: Live/Dead SYTO-9 / propidium iodide staining, CLSM; format: cell-based, Acinetobacter baumannii; settings: COG1410 1×MIC, polymyxin B 5×MIC, 30 min
[3] = system: A. baumannii YQ4; test: RNA-seq transcriptome analysis; format: cell-based, Acinetobacter baumannii; settings: 0.25×MIC (4 μg/ml), M9 medium

Row | Compound | cell morphology by SEM [1] | cell morphology by TEM [1] | SYTO-9 / PI staining of treated cells [2] | genes with decreased transcription level [3] | genes with increased transcription level [3] | significantly differentially expressed genes (at least 2-fold change) [3]
1 | polymyxin B [reference compound] | cell lysis and release of cell contents | collapse of the cell walls in most cells |  |  |  | 
2 | CC(=O)N[C@@H](C)C(=O)N[C@@H](CO)C(=O)NC(C)(C)C(=O)N[C@@H](CC(C)C)C(=O)N[C@@H](CCCNC(=N)N)C(=O)N[C@@H](CCCCN)C(=O)N[C@@H](CC(C)C)C(=O)NC(C)(C)C(=O)N[C@@H](CCCCN)C(=O)N[C@@H](CCCNC(=N)N)C(=O)N[C@@H](CC(C)C)C(=O)N[C@@H](CC(C)C)C(N)=O [SEQ ID NO: 1, acetyl-AS-aib-LRKL-aib-KRLL-amide] (Ac-AS[Aib]LRKL[Aib]KRLL-NH2) | intact, with few cell debris observed | wrinkled and smaller compared with untreated cells | red fluorescence | 37 | 55 | 92
